Target: BC2L-C-Nt (rBC2L-CN2) (Burkholderia cenocepacia, UniProt B4EH86)
Test: Isothermal titration calorimetry (ITC)
Type: binding
Conditions: read-out: ITC KD; 25 °C, 20 mM Tris HCl pH 7.0, 100 mM NaCl; SD from duplicates
Description: All experiments were performed at 25 °C with an ITC200 isothermal titration calorimeter (Microcal-Malvern Panalytical, Orsay, France). The protein rBC2L-CN2 and its ligands were dissolved in a buffer composed of 20 mM Tris HCl pH 7.0 and 100 mM NaCl. The 200 μL sample cell containing rBC2L-CN (concentrations ranging from 200 to 400 μM) was subjected to injections of ligand solution: 20 to 39 injections of 1 μL or 70 injections of 0.5 μL (5 to 50 mM, chosen depending on the ligand) at intervals of 100, 120, or 200 s, while stirring at 850 rpm. Control experiments were performed by repeating the same protocol, but injecting the ligand into buffer solution. The supplied software Origin 7 or MicroCal PEAQ-ITC was used to fit the experimental data to a theoretical titration curve allowing the determination of affinity.
3. Ligand evaluation materials and methods
3.1. Isothermal Titration Calorimetry
All experiments were performed at 25 °C with an ITC200 isothermal titration calorimeter (Microcal - Malvern Panalytical, Orsay, France). The protein rBC2L -CN2 and its ligands were dissolved in a buffer composed of 20 mM Tris HCl pH 7.0 and 100 mM NaCl. […]

Sequences of proteins named here, by UniProt entry; tags and fusion partners are left off. Residues count along the entry.
UniProt B4EH86, 1-132 limits assumed: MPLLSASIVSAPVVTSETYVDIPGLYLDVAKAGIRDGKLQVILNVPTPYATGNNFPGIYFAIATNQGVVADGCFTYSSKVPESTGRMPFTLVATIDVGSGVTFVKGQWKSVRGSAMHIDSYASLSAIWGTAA

`C[C@@H]1O[C@H](NC(=O)c2ccc3[nH]ccc3c2)[C@@H](O)[C@H](O)[C@@H]1O` [8e] showed a Kd of 760 µM.

From publication PMC9594048, “Targeting a Multidrug-Resistant Pathogen: First Generation Antagonists of Burkholderia cenocepacia’s BC2L-C Lectin” (ACS Chemical Biology, 2022)
